# Library screen at single concentrations

Data taken from ChEMBL document CHEMBL3988442, “University of Dundee, Small-Polar-MMV Screening Library” (2021).

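Whole-cell growth test on Mycobacterium tuberculosis, read after 4 days in a medium based on cholesterol and the lipid DPPC; the read-out is not stated. Tested at 500 µM. Higher reads as more growth inhibition (inferred: compounds with an IC50 in retests scored well above the rest). Size under these conditions: about 18,000 compounds, about 900 of them at 50% or above in at least one test.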

The filed quantity is “Percent Effect” (%). The controls that fix the scale are not given in the record; negative values are as filed. Many other results are left out here, so strong results are more common than in the screen.

Compound	Percent Effect
O=C(C1CCCN1c1ccncc1Cl)N1CCSCC1 (stereo not shown)	4.762
Cc1ccc(C(C)NC(=O)CCNS(C)(=O)=O)o1 (stereo not shown)	-11.79
CC(C)(C)OC(=O)N1CC(O)CC(F)(F)C1 (stereo not shown)	4.556
Nc1nnc(SCc2ccno2)s1	-2.424
CC(C)c1ncc(C(=O)Nc2ccc(C(N)=O)nc2)s1	3.587
OCCCNC1(c2nccs2)CCCC1	-7.378
CNc1ncccc1N	-252.9
CC(=O)N1CCN(C(=O)CCC(C)C)CC1	13.08
CSCc1ccc(C(=O)N(C)Cc2cnccn2)o1	-2.302
CC(O)c1cccc(OCCC2OCCO2)c1 (stereo not shown)	41.14
Cc1ccc(C2CCCN2S(=O)(=O)N2CCOCC2)o1 (stereo not shown)	-25.89
COc1ccc2c(c1)CCCC(=O)N2	6.077
NC(=O)c1ccc(=O)n(Cc2ccc(Br)s2)n1	18.08
COCc1ccccc1CNC(=O)c1nc(C)ns1	59.68
COc1ccc(CN(C)C(=O)C2CC2)cc1F	80.87
COCC(O)CNc1nc(CC(C)C)ns1 (stereo not shown)	19.09
NC(=O)CN1CCN(Cc2ccc3c(c2)CCO3)CC1	0.04036
CS(=O)(=O)Cc1ccc(C(=O)NCC2CCCO2)cc1 (stereo not shown)	-4.427
COCCNS(=O)(=O)c1cn[nH]c1C	3.958
CC(=O)c1ccc(NC(N)=O)cc1Cl	37.97
NC(=O)NC(=O)CCS(=O)(=O)c1cc(F)ccc1F	112.1
Cc1ocnc1C(=O)Nc1ncccc1Cl	-16.21
C[C@@H](C(=O)NCc1cccc(Cl)c1)n1cnnn1	13.19
CN(C)[C@@H]1CN(C(=O)c2c(F)cccc2Cl)C[C@H]1CO	-38.27
OCCC1COCCN1 (stereo not shown)	1.242
CCC(C)NC(=O)c1cnn2cccnc12 (stereo not shown)	-19.41
CCC1CN(CCN)CCO1 (stereo not shown)	-10.27
O=C(c1ccncc1F)N1CCC2(CCC2O)CC1 (stereo not shown)	4.235
COC(=O)c1ccc(CCNC(=O)C2CCCO2)cc1 (stereo not shown)	60.93
CCCC(=O)N1C[C@@H](CO)[C@H](N(C)C)C1	-12.25
CC(N)c1ccc(Br)cc1OCCO (stereo not shown)	13.3
OCCCN1CCN(c2nccc3occc23)CC1	-11.69
O=C(C1CCOCC1)N1CCC(Oc2ccccc2)C1 (stereo not shown)	30.49
O=C(CNc1cccc(CO)c1)NCc1ccc(Cl)s1	48.08
O=C(NCC1CC1)c1noc(-c2ccccc2F)n1	50.63
CC(=O)NCCNC(=O)COc1c(C)cccc1C	-3.445
Cc1noc(CCNC(=O)NCCc2ccccn2)n1	-1.735
CN1CCC(NC(=O)c2c(Br)cnn2C)CC1	10.24
OCC(Nc1ncccc1Br)c1ccccc1 (stereo not shown)	61.42
O=C1CCNC(C2CC2)C1 (stereo not shown)	-19.42
O=C(CN(C1CCCC1)C1CC1)N1CCNC1=O	1.097
CNC(=O)c1cccc(NCc2nc(C)cs2)n1	-20.63
Cc1nc[nH]c1CN(C)CC(C)N1CCOCC1 (stereo not shown)	2.868
CCC(NC(=O)CCn1cccn1)c1ccccc1O (stereo not shown)	17.26
CCC1CN(CCN2CCCC2=O)CCN1CCOC (stereo not shown)	-7.064
Cc1ccc(CN2CC(O)(CC#N)C2)s1	-13.54
COCC(C)Nc1cccc(F)c1C#N (stereo not shown)	56.83
CNC(=O)CCC(C)(C)NC(=O)c1ccc(COC)s1	-0.6443
COc1cc(CNC(=O)Nc2ccnc(C)c2)ccn1	49.34
COc1ccnc(NC(=O)NCc2cccs2)c1	60.95
CS(=O)(=O)n1cc(N)cn1	7.692
CN(CC(N)=O)Cc1cccc(OCC(F)(F)F)c1	39
O=C(COC(=O)c1ccccn1)Nc1ccccc1	95.64
CCCn1ccc(CN)n1	10.7
Cc1cccc(NCCCNC(=O)C(C)C)n1	9.83
CCCC(C)(C)NC(=O)c1ccc(S(C)(=O)=O)cc1	27.83
CCNS(=O)(=O)CCNC(=O)Cc1cc(F)ccc1F	-10.08
COCCNS(=O)(=O)c1ccc(C#N)cc1	-16.04
Cc1ccc([C@@H](O)CN)cc1	9.149
COC1CCN(C(=O)Cc2noc3ccccc23)CC1	22.92
CC1CCCN1C1CCN(CCNS(C)(=O)=O)CC1 (stereo not shown)	31.72
Cc1ccc(C(C)C)c(OCC(O)CNCCO)c1 (stereo not shown)	77.78
COc1ccc(-c2noc(Cn3cncn3)n2)cn1	16.25
CN1CCCN(C(=O)COc2ccc(F)cc2Cl)CC1	10.46
CNS(=O)(=O)CCNC(=O)C(C)c1ccccc1 (stereo not shown)	6.124
N#Cc1c(F)cccc1NCCSCCCO	69.41
CCCc1noc(C(C)Nc2cccc(C(N)=O)c2)n1 (stereo not shown)	62.89
CN(CCC(N)=O)Cc1ccc(Cl)s1	38.99
CCOCCOc1cccc(NC(=O)NCCN)c1	10.03
COc1cccc([C@@H]2C[C@H]2N)c1	50.33
Nc1ccnn1Cc1ccccn1	-24.36
Cc1ccc(-c2nc(CSc3nnc(N)[nH]3)no2)cc1	76.56
CCC(=O)c1ccc(CN)cc1	53.14
Cc1cnc(C)c(N2CCNCC2)n1	3.203
COc1cccc(Nc2nccc(=O)[nH]2)c1	-4.619
NCc1ccc(-n2cc(Cl)cn2)cc1	13.71
CNC(=O)C(C)(O)CN1Cc2ccccc2C1=O (stereo not shown)	-15.92
CNC(=O)NC(=O)CN1CCCCC1CNS(C)(=O)=O (stereo not shown)	-1.335

The first 4 entries again:

| Compound | Percent Effect |
|---|---|
| `O=C(C1CCCN1c1ccncc1Cl)N1CCSCC1` (stereo not shown) | 4.762 |
| `Cc1ccc(C(C)NC(=O)CCNS(C)(=O)=O)o1` (stereo not shown) | -11.79 |
| `CC(C)(C)OC(=O)N1CC(O)CC(F)(F)C1` (stereo not shown) | 4.556 |
| `Nc1nnc(SCc2ccno2)s1` | -2.424 |